According to patent publication US9181251B2, “Anti-malarial compounds from marine natural products” (University of Central Florida Research Foundation, Inc., priority 2012, dated 2015):

Test system: P. falciparum chloroquine-resistant Dd2 strain
Assay: Antiplasmodial activity, SYBR Green I fluorescence-based assay
Type: cell-based
Experimental: Fractions were derived from 20 different marine species. […] All fractions were then analyzed by LC-MS to identify active extracts with the greatest potential for novelty.
Antiplasmodial activity was tested in P falciparum chloroquine resistant Dd2, and the cytotoxicity was assessed in NIH 3T3 fibroblasts cells.
Asynchronous cultures were exposed to different concentrations of inhibitor for 72 hrs. […] The cytotoxicity against NIH 3T3 fibroblasts was evaluated using an MTS assay [(3-(4,5-dimethylthiazol-2-yl)-5-(3-carboxymethoxyphenyl)-2-(4-sulfophenyl)-2H-tetrazolium), CellTiter 96® Aqueous non-radioactive cell proliferation assay, Promega

Compound	SI (selectivity index given beside the IC50)	ratio of a NIH 3T3 IC50 value to a P. falciparum IC50 value (from Table 2)
C/C1=C\CC(C)(C)/C=C/C(=O)[C@@H](C)CCC[C@H](C)CC(=O)C1 [Compound 3]	> 64	
O=C1N[C@@H](c2c[nH]c3cc(Br)ccc23)CN=C1c1c[nH]c2cc(Br)ccc12 [Hamacanthin A 7, Hamacanthin A]		at least 9
